Share of PSTVd stem 3 variants by leaf site

Region: stem 3 of PSTVd (intermediate strain), upper and lower strand joined, each 5' to 3', the first 8 letters being the upper strand. Wild type: GUGGUUCCGGAACCGC. Varied positions (N): GUGGUUCCGNANNCNN.

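A pool of all variants was put on leaves of three Nicotiana benthamiana plants. Progeny were sequenced from the inoculated region (day 5), the margin of the inoculated leaf (day 10) and systemic leaves (day 12).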

Numbers give reads per thousand; 0 = not seen among the reads, higher = more abundant. Each site shows the three plants. "Pool" is the share in the plasmid pool used as inoculum, on the same scale. The inoculated region was read from the minus strand, the other sites from the plus strand.

For GUGGUUCCGAAGACCG (pool 1.00) the result was inoculated region 0.773 / 0.690 / 0.730; leaf margin 0 / 0.763 / 0.469; systemic leaves 0 / 0 / 0. For GUGGUUCCGGAUGCUA (pool 0.816) the result was inoculated region 0.293 / 0.410 / 0.189; leaf margin 0.0567 / 0 / 0; systemic leaves 0 / 0 / 0. GUGGUUCCGGAAUCCC (pool 0.816) gave inoculated region 0.480 / 0.367 / 0.162; leaf margin 0 / 0 / 0; systemic leaves 0 / 0 / 0. With GUGGUUCCGUAAACUG (pool 0.846) the assay gave inoculated region 0.267 / 0.259 / 0.270; leaf margin 0 / 0 / 0; systemic leaves 0 / 0 / 0. GUGGUUCCGUAUACGA (pool 0.893) read inoculated region 0.240 / 0.367 / 0.162; leaf margin 0 / 0 / 0; systemic leaves 0 / 0 / 0. For GUGGUUCCGGAUUCUG (pool 0.739) the result was inoculated region 0.293 / 0.410 / 0.216; leaf margin 0 / 0.0318 / 0.0361; systemic leaves 0 / 0 / 0. GUGGUUCCGUACACUG (pool 0.723) gave inoculated region 0.240 / 0.280 / 0.135; leaf margin 0 / 0 / 0; systemic leaves 0 / 0 / 0. With GUGGUUCCGCAGGCCG (pool 0.846) the assay gave inoculated region 0.293 / 0.388 / 0.162; leaf margin 0.0283 / 0 / 0; systemic leaves 0 / 0.0184 / 0.

For GUGGUUCCGUAGCCGC (pool 0.954) the result was inoculated region 0.187 / 0.474 / 0.270; leaf margin 0.0283 / 0 / 0; systemic leaves 0 / 0 / 0. For GUGGUUCCGGAGCCCA (pool 0.785) the result was inoculated region 0.613 / 0.668 / 0.838; leaf margin 0.227 / 0 / 0.361; systemic leaves 0 / 0 / 0. With GUGGUUCCGGGACCGC (pool 0.185) the assay gave inoculated region 0.293 / 0.259 / 0.270; leaf margin 0.170 / 0.414 / 0.144; systemic leaves 0.317 / 0.314 / 0.268. For GUGGUUCCGGAUUCUC (pool 0.954) the result was inoculated region 0.933 / 0.927 / 0.784; leaf margin 0.170 / 0 / 0.542; systemic leaves 0.0559 / 0 / 0. GUGGUUCCGUAAACGC (pool 0.785) read inoculated region 0.400 / 0.410 / 0.216; leaf margin 0 / 0 / 0; systemic leaves 0.0186 / 0 / 0. For GUGGUUCCGAACUCCA (pool 1.20) the result was inoculated region 0.853 / 0.798 / 0.946; leaf margin 0 / 0 / 0.0722; systemic leaves 0.0186 / 0 / 0. With GUGGUUCCGCAGCCAU (pool 0.769) the assay gave inoculated region 1.01 / 0.927 / 0.811; leaf margin 0 / 1.24 / 0.469; systemic leaves 0 / 0 / 0. GUGGUUCCGGAUCCUG (pool 0.769) gave inoculated region 0.480 / 0.367 / 0.135; leaf margin 0 / 0 / 0; systemic leaves 0 / 0 / 0.0243.

GUGGUUCCGAAACCAA (pool 1.51) gave inoculated region 1.28 / 0.863 / 1.27; leaf margin 0 / 0 / 0; systemic leaves 0 / 0.0184 / 0. GUGGUUCCGCACACAA (pool 1.59) gave inoculated region 0.826 / 0.625 / 0.486; leaf margin 0 / 0 / 0.0361; systemic leaves 0.186 / 0 / 0. With GUGGUUCCGAAUUCGG (pool 0.831) the assay gave inoculated region 0.773 / 0.776 / 1.08; leaf margin 0 / 0 / 0; systemic leaves 0 / 0 / 0. GUGGUUCCGUAUCCCC (pool 1.26) gave inoculated region 0.933 / 0.949 / 0.811; leaf margin 0.652 / 0.0318 / 0; systemic leaves 0 / 0.0184 / 0. For GUGGUUCCGGAACCGA (pool 1.09) the result was inoculated region 1.28 / 0.927 / 1.38; leaf margin 0.935 / 0.795 / 0.433; systemic leaves 1.04 / 0.904 / 0.681. GUGGGUCCGCAAGCCC (pool 0.0154) read inoculated region 0 / 0 / 0; leaf margin 0 / 0 / 0; systemic leaves 0 / 0 / 0. For GUGGUUCCGAAAGCGU (pool 0.893) the result was inoculated region 0.720 / 0.518 / 1.03; leaf margin 0 / 0 / 0.0361; systemic leaves 0.0186 / 0.0184 / 0. With GUGGUUCCGGAUACGG (pool 1.63) the assay gave inoculated region 0.693 / 1.12 / 0.892; leaf margin 0.0283 / 0 / 0; systemic leaves 0.149 / 0.0738 / 0.

GUGGUUCCGAACGCAG (pool 0.677) read inoculated region 0.773 / 0.539 / 0.784; leaf margin 0 / 0 / 0.361; systemic leaves 0 / 0 / 0. With GUGGUUCCGAAAACGU (pool 0.954) the assay gave inoculated region 0.933 / 0.776 / 1.24; leaf margin 0 / 1.08 / 0.325; systemic leaves 0 / 0 / 0. GUGGUUCCGUAUACCG (pool 0.800) gave inoculated region 0.400 / 0.367 / 0.162; leaf margin 0 / 0 / 0.108; systemic leaves 0 / 0 / 0.

2 of these entries, quoted again:

sequence	pool	inoculated region	leaf margin	systemic leaves
GUGGUUCCGGGACCGC	0.185	0.293 / 0.259 / 0.270	0.170 / 0.414 / 0.144	0.317 / 0.314 / 0.268
GUGGUUCCGUAGCCGC	0.954	0.187 / 0.474 / 0.270	0.0283 / 0 / 0	0 / 0 / 0

Sequences that differ at fixed positions probably stem from PCR or sequencing errors, and defective variants can be carried along by functional ones. Samples held 27,691 to 54,225 reads, so the smallest values rest on one or two reads. Wild type was 17.3 per thousand in the pool and the most common sequence in every sample (inoculated region 330, 345, 235; leaf margin 794, 766, 816; systemic leaves 830, 792, 869).

Values reported by Wu et al. 2024 (doi:10.1371/journal.ppat.1012142).